Compound potency records, mixed from different reports. Data source: NIAID ChemDB in PubChem.

Shared fields: whole-cell or culture tests; species: Cytomegalovirus; read-out: EC50

Lines come from different laboratories, so protocols vary.

SMILES | strain | cell line | method | value
Nc1nc(N)c2ncn(C[C@H]3CC[C@@H](CO)C3)c2n1 | AD169 | HEL | cytopathic effect | >50 µg/mL
C[C@H](COc1cc(N)nc(N)n1)OCP(=O)(O)O | DAVIS |  | cytopathic effect | >180 µM
O=c1ccn(CC(CO)OCP(=O)(O)O)c(=O)[nH]1 | DAVIS | HEL | cytopathic effect | 100 µg/mL
Nc1nc(Cl)c2nnn(C[C@H]3CC[C@@H](CO)C3)c2n1 | AD169 | HEL | cytopathic effect | >200 µg/mL
Nc1cc(OC[C@H](CO)OCP(=O)(O)O)nc(N)n1 | AD169 |  | cytopathic effect | 139 µM
Nc1ncnc2c1ncn2CCOCP(=O)(O)O | AD169 | HEL | cytopathic effect | 40 µg/mL
Nc1nc2c(ncn2C[C@H]2CC[C@@H](CO)C2)c(=O)[nH]1 | AD169 | HEL | cytopathic effect | >200 µg/mL
O=c1[nH]c(=O)n([C@H]2C[C@H](O)[C@@H](CO)S2)cc1C1CCC1 | DAVIS/AD169 | HEL | plaque count | >1500 µM
Nc1ccn(C[C@@H](CO)OCP(=O)(O)O)c(=O)n1 | DAVIS | HEL | cytopathic effect | 0.038 µg/mL
Nc1ncc2ncn(CCOCP(=O)(O)O)c2n1 | AD169 | HEL | cytopathic effect | 200 µg/mL
Nc1ncnc2c1ncn2C[C@@H](CO)OCP(=O)(O)O | DAVIS |  | cytopathic effect | 0.63 µM
O=C(O)P(=O)(O)O |  |  |  | 7.4 µM
Cc1cn([C@H]2C[C@H](O)[C@@H](CO)O2)c(=O)[nH]c1=O | DAVIS/AD169 | HEL | plaque count | >2000 µM
Nc1nc2c(nnn2C[C@H]2CC[C@@H](CO)C2)c(=O)[nH]1 | DAVIS | HEL | cytopathic effect | >200 µg/mL
O=c1ccn([C@H]2C[C@H](O)[C@@H](CO)O2)c(=O)[nH]1 | DAVIS/AD169 | HEL | plaque count | >2000 µM
CC(=O)N(O)CCCCCNC(=O)CCC(=O)N(O)CCCCCNC(=O)CCC(=O)N(O)CCCCCN |  | HFF |  | 9.1 µM
O=c1[nH]cnc2c1ncn2CCOCP(=O)(O)O | DAVIS | HEL | cytopathic effect | >400 µg/mL
O=c1[nH]c(=O)n([C@H]2C[C@H](O)[C@@H](CO)S2)cc1C1CCCC1 | DAVIS/AD169 | HEL | plaque count | >1200 µM
OC[C@H]1O[C@@H](n2c(Br)nc3cc(Cl)c(Cl)cc32)[C@H](O)[C@@H]1O |  |  |  | 26 µM
C[C@H]1C[C@@H](n2cnc3c(N)ncnc32)[C@H](O)[C@@H]1O | DAVIS | HEL | cytopathic effect | >10 µg/mL

The first 2 rows once more:

SMILES	strain	cell line	method	value
Nc1nc(N)c2ncn(C[C@H]3CC[C@@H](CO)C3)c2n1	AD169	HEL	cytopathic effect	>50 µg/mL
C[C@H](COc1cc(N)nc(N)n1)OCP(=O)(O)O	DAVIS		cytopathic effect	>180 µM

Blank or dashed fields: not listed here. ECn is the concentration giving n% inhibition of infection, replication or growth.